Results reported in patent US20240122867A1, “CORONAL PROTEIN-COATED NANOPARTICLES AND USES THEREOF” (UNIVERSITY OF CENTRAL FLORIDA RESEARCH FOUNDATION, INC., priority 2021, published 2024).

B1: Alpha-1-acid glycoprotein 2 (protein, UniProt P07361 19-207, looked up)
Alpha-1-acid glycoprotein 2: QNPEHVNITIGDPITNETLSWLSDKWFFIGAAVLNPDYRQEIQKTQMVFFNLTPNLINDTMELREYHTIDDHCVYNSTHLGIQRENGTLSKYVGGVKIFADLIVLKMHGAFMLAFDLKDEKKRGLSLNAKRPDITPELREVFQKAVTHVGMDESEIIFVDWKKDRCSQQEKQQLELEKETKKDPEEGQA
B2: Plasma protease C1 inhibitor (protein, UniProt P97290 23-504, looked up)
Plasma protease C1 inhibitor: DPEATSHSTQDPLEAQAKSRESFPERDDSWSPPEPTVLPSTWPTTSVAITITNDTMGKVANESFSQHSQPAAQLPTDSPGQPPLNSSSQPSTASDLPTQATTEPFCPEPLAQCSDSDRDSSEAKLSEALTDFSVKLYHAFSATKMAKTNMAFSPFSIASLLTQVLLGAGDSTKSNLESILSYPKDFACVHQALKGFSSKGVTSVSQIFHSPDLAIRDTYVNASQSLYGSSPRVLGPDSAANLELINTWVAENTNHKIRKLLDSLPSDTCLVLLNAVYLSAKWKITFEPKKMMAPFFYKNSMIKVPMMSSVKYPVAQFDDHTLKAKVGQLQLSHNLSFVIVVPVFPKHQLKDVEKALNPTVFKAIMKKLELSKFLPTYLTMPHIKVKSSQDMLSVMEKLEFFDFTYDLNLCGLTEDPDLQVSAMKHETVLELTESGVEAAAASAISFGRSLPIFEVQRPFLFLLWDQQHRFPVFMGRVYDPRG
B3: Keratin, type II cytoskeletal 73 (protein, UniProt Q6NXH9 1-539, looked up)
Keratin, type II cytoskeletal …: MNRQFTCKPGVANRGFSGCSAVLSGGSSSSYRAAGKGLSGGFSSRSLYSLRSPRSISFNVASSSGRTGGYGFGRNRASGFAGSMFGSGALGPSNPSLCLPGGIHQVTVNKSLLAPLNVELDPEIQKVRAQEREQIKALNNKFASFIDKVRFLEQQNQVLQTKWELLQQLDLSNCRRNLEPVYEAHISSLQKQLDSLSGDRVRLDSELRGMRDAVEDCKKRYEEEINKRTTAENEFVVLKKDVDAAYMSKVELQAKVDALDGEIKFLKCLYEGEITQMQSHISDTSVVLSMDNNRNLDLDSIIAEVRAQYEDIALKSKAEAEMVYQTKFQELQLAAGRHGDDLKHTRNEISELTRLIQRLRSEIESVKKQCSNLETAIADAEQRGDCALKDARAKLDELERALHQAKEELARMLREHQELMSMKLALDIEIATYRKLLEGEECRMSGEHTSAVSISVISSSAPGTVGAGTSFGFSSAGTYGYRQSSVAGGYGILSGGCVTGSGNCSPRGDTKNRLGSASEFKEVSGKTLALGSPSKKTMR
B4: Apolipoprotein C-III (protein, UniProt P33622 21-99, looked up)
Apolipoprotein C-III: EEVEGSLLLGSVQGYMEQASKTVQDALSSVQESDIAVVARGWMDNHFRFLKGYWSKFTDKFTGFWDSNPEDQPTPAIES
B5: Keratin, type II cytoskeletal 2 oral (protein, UniProt Q3UV17 1-594, looked up)
Keratin, type II cytoskeletal …: MSRQACKKSFSCGSQGFSGHSAVVSGSSRSSCVARSGAASGGACGFRSGAGSLGSHSLYSLGGSKSISISVAAGGSRAGGFSGGRSSCGSGFGSGYGGSLGGSRGMGAGFGGPSGFGGAGGFGRPGSFGPGSCPGGIQEVTINQSLLQPLNVEIDPQIGQVKAQEREQIKTLNNKFASFIDKVRFLEQQNKVLETKWELLQQQTIRSGSGPQNLEPFFESYISCLRKQLDSLLGAKGSLEGELKSMQDLVEDFKKKYEEEINRRTAAENEFVGLKKDVDGAFMNKVELQAKVDSLTDEINFLRTLYDMELSQIQSHVSDTSVVLSMDNNRCLDLDSIIAEVKAQYEDIAQKSKAEAEALYQTKLGELQTTAGRHGDDLRSTKSEIMDLNRMIQRLRAEIENVKKQNTNMQTSIAEAEQRGERALKDADTKFQDLQVALQKAKEDMARLLKEYQELMNVKLALDVEIATYRKLLEGEECRLSGEFQNAVSISVVSNVTSTSSSGSFRGTGGSNYGGDSSGRSGGSSSSSSRGSSSRGSSGSRLGSGGSISVSQQRMGFNSGGSQTSVGSSYKSGRGGSSSVQFSQTTSSSQQRSK
B6: Hemopexin (protein, UniProt Q91X72 24-460, looked up)
Hemopexin: SPLPTANGRVAEVENGTKPDSDVPEHCLDTWSFDAATMDHNGTMLFFKGEFVWRGHSGTRELISARWKNPITSVDAAFRGPDSVFLIKEDKVWVYPPEKKENGYPKLFQEEFPGIPYPPDAAVECHRGECQSEGVLFFQGNRKWFWDFATRTQKERSWSTVGNCTAALRWLERYYCFQGNKFLRFNPVTGEVPPRYPLDARDYFVSCPGRGHGRPRNGTAHGNSTHPMHSRCSPDPGLTALLSDHRGATYAFTGSHYWRLDSSRDGWHSWPIAHHWPQGPSTVDAAFSWDDKVYLIQGTQVYVFLTKGGNNLVSGYPKRLEKELGSPPGISLETIDAAFSCPGSSRLYVSSGRRLWWLDLKSGAQATWTEVSWPHEKVDGALCLDKSLGPNTCSSNGSSLYFIHGPNLYCYSSIDKLNAAKSLPQPQKVNSILGCSQ
B7: Fibrinogen gamma chain (protein, UniProt Q8VCM7 26-436, looked up)
Fibrinogen gamma chain: YVATRDNCCILDERFGSFCPTTCGIADFLSSYQTDVDNDLRTLEDILFRAENRTTEAKELIKAIQVYYNPDQPPKPGMIDSATQKSKKMVEEIVKYEALLLTHETSIRYLQEIYNSNNQKITNLKQKVAQLEAQCQEPCKDSVQIHDTTGKDCQEIANKGAKESGLYFIRPLKAKQQFLVYCEIDGSGNGWTVLQKRIDGSLDFKKNWIQYKEGFGHLSPTGTTEFWLGNEKIHLISMQSTIPYALRIQLKDWNGRTSTADYAMFRVGPESDKYRLTYAYFIGGDAGDAFDGYDFGDDPSDKFFTSHNGMQFSTWDNDNDKFEGNCAEQDGSGWWMNKCHAGHLNGVYHQGGTYSKSSTTNGFDDGIIWATWKSRWYSMKETTMKIIPFNRLSIGEGQQHHMGGSKQAGDV
B8: Serum amyloid A-2 protein (protein, UniProt P05367 20-122, looked up)
Serum amyloid A-2 protein: GFFSFIGEAFQGAGDMWRAYTDMKEAGWKDGDKYFHARGNYDAAQRGPGGVWAAEKISDARESFQEFFGRGHEDTMADQEANRHGRSGKDPNYYRPPGLPAKY
B9: Coagulation factor XII (protein, UniProt Q80YC5 20-354; Q80YC5 355-597, looked up)
Coagulation factor XIIa heavy …: APPWKDSKKFKDAPDGPTVVLTVDGRLCHFPFQYHRQLHHKCIHKRRPGSRPWCATTPNFDEDQQWGYCLEPKKVKDHCSKHNPCHKGGTCINTPNGPHCLCPEHLTGKHCQKEKCFEPQLLKFFHENELWFRTGPGGVARCECKGSEAHCKPVASQACSINPCLNGGSCLLVEDHPLCRCPTGYTGYFCDLDLWATCYEGRGLSYRGQAGTTQSGAPCQRWTVEATYRNMTEKQALSWGLGHHAFCRNPDNDTRPWCFVWSGDRLSWDYCGLEQCQTPTFAPLVVPESQEESPSQAPSLSHAPNDSTDHQTSLSKTNTMGCGQRFRKGLSSFMR
Coagulation factor XIIa light …: VVGGLVALPGSHPYIAALYWGNNFCAGSLIAPCWVLTAAHCLQNRPAPEELTVVLGQDRHNQSCEWCQTLAVRSYRLHEGFSSITYQHDLALLRLQESKTNSCAILSPHVQPVCLPSGAAPPSETVLCEVAGWGHQFEGAEEYSTFLQEAQVPFIALDRCSNSNVHGDAILPGMLCAGFLEGGTDACQGDSGGPLVCEEGTAEHQLTLRGVISWGSGCGDRNKPGVYTDVANYLAWIQKHIAS
B10: Cluster of Keratin, type I cytoskeletal 10 (protein, UniProt P02535 1-570, looked up)
Keratin, type I cytoskeletal …: MSVLYSSSSKQFSSSRSGGGGGGGSVRVSSTRGSLGGGYSSGGFSGGSFSRGSSGGGCFGGSSGGYGGFGGGGSFGGGYGGSSFGGGYGGSSFGGGYGGSSFGGAGFGGGGSFGGGSFGGGSYGGGFGGGGFGGDGGSLLSGNGRVTMQNLNDRLASYMDKVRALEESNYELEGKIKEWYEKHGNSSQREPRDYSKYYKTIEDLKGQILTLTTDNANVLLQIDNARLAADDFRLKYENEVTLRQSVEADINGLRRVLDELTLSKSDLEMQIESLNEELAYLKKNHEEEMRDLQNVSTGDVNVEMNAAPGVDLTQLLNNMRNQYEQLAEKNRKDAEEWFNQKSKELTTEIDSNIEQMSSHKSEITELRRTVQGLEIELQSQLALKQSLEASLAETEGRYCVQLSQIQSQISALEEQLQQIRAETECQNAEYQQLLDIKTRLENEIQTYRSLLEGEGSSSGGGGGRRGGSGGGSYGGSSGGGSYGGSSGGGGSYGGSSGGGGSYGGGSSGGGSHGGSSGGGYGGGSSSGGAGGHGGSSGGGYGGGSSSGGQGGSGGFKSSGGGDQSSKGPRY
modifications: protein cluster
B11: Keratin, type I cytoskeletal 10 (protein, UniProt P02535 1-570, looked up)
Keratin, type I cytoskeletal …: B10 Keratin, type I cytoskeletal …
B12: Mannan-binding lectin serine protease 2 (protein, UniProt Q91WP0 20-685, looked up)
Mannan-binding lectin serine …: SKWPEPVFGRLVSPGFPEKYADHQDRSWTLTAPPGYRLRLYFTHFDLELSYRCEYDFVKLSSGTKVLATLCGQESTDTEQAPGNDTFYSLGPSLKVTFHSDYSNEKPFTGFEAFYAAEDVDECRVSLGDSVPCDHYCHNYLGGYYCSCRAGYVLHQNKHTCSALCSGQVFTGRSGYLSSPEYPQPYPKLSSCTYSIRLEDGFSVILDFVESFDVETHPEAQCPYDSLKIQTDKGEHGPFCGKTLPPRIETDSHKVTITFATDESGNHTGWKIHYTSTARPCPDPTAPPNGSISPVQAIYVLKDRFSVFCKTGFELLQGSVPLKSFTAVCQKDGSWDRPMPECSIIDCGPPDDLPNGHVDYITGPEVTTYKAVIQYSCEETFYTMSSNGKYVCEADGFWTSSKGEKLPPVCEPVCGLSTHTIGGRIVGGQPAKPGDFPWQVLLLGQTTAAAGALIHDNWVLTAAHAVYEKRMAASSLNIRMGILKRLSPHYTQAWPEEIFIHEGYTHGAGFDNDIALIKLKNKVTINGSIMPVCLPRKEAASLMRTDFTGTVAGWGLTQKGLLARNLMFVDIPIADHQKCTAVYEKLYPGVRVSANMLCAGLETGGKDSCRGDSGGALVFLDNETQRWFVGGIVSWGSINCGAADQYGVYTKVINYIPWIENIISNF

System: coronal proteins on NPs
Design: species or system mouse
Conditions: for V5 Sera_Nanoparticles Quantitative Value (Normalized Total Spectra): HBPE-NPs incubated 1 h with IAV day 5 (V5) mouse sera, 20:1 NP:sera, centrifuged and washed; for V5 Sera Alone (Control) Quantitative Value (Normalized Total Spectra): IAV day 5 (V5) mouse sera alone, no NPs (sera-only control)

Molecule | V5 Sera_Nanoparticles Quantitative Value (Normalized Total Spectra) | V5 Sera Alone (Control) Quantitative Value (Normalized Total Spectra)
B1 | 3.2638 | 2.7757
B2 | 3.2638 | 5.5514
B3 | 2.1758 | 7.4018
B4 | 2.1758 | 30.533
B5 | 2.1758 | 1.8505
B6 | 62.011 | 53.663
B7 | 3.2638 | 4.6261
B8 | 3.2638 | 12.953
B9 | 3.2638 | 2.7757
B10 | 3.2638 | 7.4018
B11 | 3.2638 | 7.4018
B12 | 3.2638 | 0.9252
